Screening data, single-dose tests

Data taken from ChEMBL document CHEMBL3988442, “University of Dundee, Small-Polar-MMV Screening Library” (2021).

Values are the deposited “Percent Effect”, in %. How 0% and 100% were set is not recorded. Most values in the screen are low, and negative values occur. The entries come from a sample that favours strong results.

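Phenotypic screen: M. tuberculosis growth, glucose 7H9 medium, 3 days; the read-out is not stated. Tested at 500 µM. Direction is inferred from retests: higher values go with more growth inhibition. Of about 18,000 compounds tested this way, about 1,400 (7.9%) reached 50% or more in at least one test.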

structure,Percent Effect
COCC(C)C(=O)Nc1ccc2c(c1)CCCN2 (centres undefined),9.504
COC(=O)CNc1ccccc1,55.83
CC1(C)CN(c2ncccc2C#N)CCO1,8.731
O=C(NCCN1CCCC1)c1ccco1,6.779
COc1ccc2c(c1)CN(C(=O)C1CCCOC1)CC2 (centres undefined),58.88
CCC(C)Oc1cc(CN)ccn1 (centres undefined),-5.909
Nc1nc(CCC(=O)NCc2cn3c(n2)SCC3)cs1,0.3351
O=C(c1cnc[nH]1)N1C[C@H](O)[C@@H](N2CCCCC2)C1,3.002
C=C(C)CSCC(=O)NC1CCOCC1,3.983
CNC(=O)c1cccc(-c2nc(C(C)(C)OC)no2)c1,2.79
CS(=O)(=O)CCN1CCCC(CO)(CC2CC2)C1 (centres undefined),17.76
CCc1c(C)nn(CCNC(=O)[C@H](C)NC)c1C,1.617
CN(C)C(=O)c1cccnc1SC(F)F,13.37
COC[C@@H]1CCCN1Cc1cc2n(n1)CCNC2,-7.596
CCNC(=O)c1ccc2n1CCNC2C (centres undefined),6.566
COCCN(CCOC)Cc1cc(-c2ccco2)on1,46.03
O=c1oc2ccccc2n1CC1CCOC1 (centres undefined),22.1
CC(=O)NCc1ccc(C(C)=O)s1,17.5
CNC(=O)C(N)C(C)C (centres undefined),-2.132
O=C1NCCCC1O (centres undefined),-7.184
CNC(=O)NC(=O)CSc1nc(C)c(C)c(C)c1C#N,-1.377
CN(CCC#N)C(=O)CN1CCc2ccccc2C1,17.11
Cc1noc(-c2ccc(CN)cc2)n1,39.56
COCCN1CCN(Cc2ccc(C#N)o2)CC1=O,8.084
CC(C)(C)NC(=O)c1ccc(CN2CCCC2)cc1,4.095
CC(C)(C)OC(=O)Nc1ccc(C(N)=O)cc1,0.9895
CN(CCCS(C)(=O)=O)Cc1cscn1,-7.711
CN(C)C(=O)C1CCCN1C(=O)Cc1ccccc1 (centres undefined),18.9
CC(C)CNc1nc(N)c2cn[nH]c2n1,74.7
CCc1ccccc1S(=O)(=O)N(C)C(C)CN (centres undefined),43.69
O=C(NC1CCCN(C2CCCC2)C1)c1cnc[nH]1 (centres undefined),-2.436
Cc1cccc(NC(=O)CN2CCN(C)CC2)c1C,12.29
CCOc1ccc(C(=O)Nc2ccnc(C)c2)cn1,55.11
Cc1cccc(C(=O)Nc2cc[nH]n2)c1F,15.97
CC(C)(CC(N)=O)NC(=O)C1CC=CC1,2.618
NC1CCC(=O)NC1 (centres undefined),-18.98
CCOc1ccc(S(=O)(=O)NC(C)C(N)=O)cc1 (centres undefined),-4.003
CC(C)CC(N)C(=O)N1CCNC(=O)C1 (centres undefined),0.5689
O=C(CN1CCOC(c2ccccc2)C1)NC1CC1 (centres undefined),39.5
CCOc1ccc2c(c1)cc(C(=O)NCCOC)n2C,1.374
Cc1cc(Br)cc2cc(C(=O)NC(C)(CO)CO)oc12,67.75
CC1(C)CC(n2cccn2)C(C)(C)O1 (centres undefined),-1.773
CN1C[C@@H]2CN(C(=O)c3cc(C4CC4)on3)C[C@@H]2C1,10.55
CC(C)Oc1ccc(S(=O)(=O)N(C)C(C)CN)cc1 (centres undefined),78.07
CCC(c1nnc(SCC(=O)NCC(C)C)o1)N(C)C (centres undefined),61.23
COCCOC1CCN(c2cccc(C)n2)CC1,54.75
Cc1cc(NC(=O)NC(C)CN2CCOCC2)no1 (centres undefined),14.64
COCc1cc(=O)[nH]c(C2(N)CCCC2)n1,10.23
CO[C@H]1CNC[C@H]1OC,0.03363
NC(=O)COc1cccc(C(=O)N2CCCCCC2)c1,12.74
O=C(Cc1nc(-c2cccnc2)no1)NCC(F)(F)F,-5.346
CN(C)C(=O)CCn1nc2ccccn2c1=O,18.4
Cc1cc(C(=O)N2C[C@@H](CO)[C@H](N(C)C)C2)nn1C,-1.796
COC(=O)c1cc(NC(=O)CN(C)C)ccc1C,30.4
CC(C)C(=O)N(C)CCC(N)C(C)C (centres undefined),0.02861
COCCN1CCN(CCS(=O)(=O)C(F)(F)F)CC1,103
COC(=O)c1ccc(CSc2nnc(N)[nH]2)cc1,42.96
CC(C)OCC(=O)N1C[C@H](C2CC2)[C@@H](N)C1,-0.6712
NCC1Cc2ccccc21 (centres undefined),72.52
Cc1cccc2[nH]cc(CCN)c12,84.83
CCO[C@H]1CN(CCn2cc(Cl)cn2)C[C@@H]1O,20.54
c1ccc(Cn2cnc(C3COCCN3)n2)cc1 (centres undefined),7.554
Cc1ccoc1C(=O)N(C)C1CCN(C)CC1,9.009
Cn1cnc(S(=O)(=O)NCC(N)c2ccccc2)c1Cl (centres undefined),35.88
Cc1cc(C(=O)N[C@H]2CCCNC2)n(C)n1,12.4
Cc1ccc(CCNC(=O)NC(CO)CC(C)C)cn1 (centres undefined),-6.843
Cc1nnc(SC(C#N)C2CCCCC2)n1CC(N)=O (centres undefined),22.71
Nc1ccc(C2CCCN2)nn1 (centres undefined),8.13
CNS(=O)(=O)c1ccc(NCCn2ccnc2)c(F)c1,-8.272
O=C(Cn1ccc(C(F)(F)F)n1)Nc1ccccn1,54.62
Cn1ncc(Cl)c1C(=O)NCCN1CCCCC1,7.281
CC1CCCCN1Cc1nc(-c2ccccn2)no1 (centres undefined),20.86
CCc1nc(C)cc(N)n1,-2.476
CCCn1nnnc1CN(C)C(C)(C)C(=O)OCC,19.79
Cn1cc(CNS(N)(=O)=O)cn1,7.18
CCCn1nnc(NC(=O)c2ccccc2F)n1,67.09
COC(=O)CN1CCN(c2ccccc2O)CC1,20.03
COc1ccccc1NC(=O)N1CCCN(C)CC1,15.16
CNC(=O)C1CCN(C(=O)CCc2cccs2)CC1,51.98
COc1cc(OC)cc(N2CCC(N)C2)c1 (centres undefined),76.13
O=C(CC(O)c1cccc(F)c1)N1CCC[C@H]1CO (some centres undefined),5.062
Nc1ccc2c(n1)NC(=O)CO2,-1.332

7 of the entries, repeated:

- O=C(Cn1ccc(C(F)(F)F)n1)Nc1ccccn1 | 54.62%
- CNC(=O)NC(=O)CSc1nc(C)c(C)c(C)c1C#N | -1.377%
- CS(=O)(=O)CCN1CCCC(CO)(CC2CC2)C1 (centres undefined) | 17.76%
- Cc1nnc(SC(C#N)C2CCCCC2)n1CC(N)=O (centres undefined) | 22.71%
- CC(=O)NCc1ccc(C(C)=O)s1 | 17.5%
- CN(CCC#N)C(=O)CN1CCc2ccccc2C1 | 17.11%
- CNC(=O)C1CCN(C(=O)CCc2cccs2)CC1 | 51.98%